Results deposited as PubChem BioAssay AID1259414 (Drosophila RNAi Screening Center, 2018).
Test: 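Host factors increasing or decreasing Wolbachia levels in cultured fly cells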 (primary screen). Cell system: Drosophila JW18 cells infected with Wolbachia. Knock-down reagent: long dsRNA against Drosophila genes, 0.25 µg dsRNA per well of a 384-well plate. Duration: 5 days. Conditions: cells persistently infected with Wolbachia before knock-down; no added drug. Read-out: 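Imaged fluorescence in situ signal for Wolbachia 23S rRNA per DAPI-counted host cell, given as a robust z-score within each plate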. Scale: Wolbachia per cell robust z: higher = more Wolbachia per host cell than the plate typical. Call rule: 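Active if absolute robust z reaches 1.5 in two or more of three replicates, leaving out multi- or no-target dsRNAs, genes unexpressed in JW18 and A1 wells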.
The screen tested about 24,000 reagents; shown is a random part of those that have a named target and a result. Over the whole deposit, about 1,210 (5%) were called active. 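Inactive calls also include excluded dsRNAs with several or no targets, genes unexpressed in JW18, and well A1, regardless of score.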 The numbers tell different reagents against one gene apart.

For etaTry (etaTrypsin) #1 the deposit lists Wolbachia per cell robust z, rep 1 = -5.77; Wolbachia per cell robust z, rep 2 = 1.23; Wolbachia per cell robust z, rep 3 = 0.698; inactive.
Silencing of etaTry (etaTrypsin) #2 resulted in: Wolbachia per cell robust z, rep 1 = -7.26; Wolbachia per cell robust z, rep 2 = -1.12; Wolbachia per cell robust z, rep 3 = 0.292; inactive.
Knock-down of Dhps (Deoxyhypusine synthase) came out at: Wolbachia per cell robust z, rep 1 = 0.49; Wolbachia per cell robust z, rep 2 = 0.326; Wolbachia per cell robust z, rep 3 = 1.82; inactive.
CG30099 #1 scored Wolbachia per cell robust z, rep 1 = -0.965; Wolbachia per cell robust z, rep 2 = -1.5; Wolbachia per cell robust z, rep 3 = -1.46; inactive.
Against CG30099 #2 the deposit lists Wolbachia per cell robust z, rep 1 = -0.348; Wolbachia per cell robust z, rep 2 = -0.878; Wolbachia per cell robust z, rep 3 = 1; inactive.
After knock-down of Cyp4d21 (Cytochrome P450 4d21) #1, the record shows Wolbachia per cell robust z, rep 1 = 0.156; Wolbachia per cell robust z, rep 2 = 0.868; Wolbachia per cell robust z, rep 3 = -0.21; inactive.
Cyp4d21 (Cytochrome P450 4d21) #2 scored Wolbachia per cell robust z, rep 1 = 0.97; Wolbachia per cell robust z, rep 2 = 0.415; Wolbachia per cell robust z, rep 3 = -0.445; inactive.
With knock-down of Or23a (Odorant receptor 23a) the results were Wolbachia per cell robust z, rep 1 = -0.213; Wolbachia per cell robust z, rep 2 = 0.03; Wolbachia per cell robust z, rep 3 = 0.258; inactive.
GPHR (Golgi pH Regulator) showed Wolbachia per cell robust z, rep 1 = -0.227; Wolbachia per cell robust z, rep 2 = -0.101; Wolbachia per cell robust z, rep 3 = -1.23; inactive.
Against Oatp33Eb (Organic anion transporting polypeptide 33Eb), the entry reads Wolbachia per cell robust z, rep 1 = 1.79; Wolbachia per cell robust z, rep 2 = -0.651; Wolbachia per cell robust z, rep 3 = 1.16; inactive.
Knock-down of zld (zelda) #1 came out at: Wolbachia per cell robust z, rep 1 = -1.48; Wolbachia per cell robust z, rep 2 = 0.168; Wolbachia per cell robust z, rep 3 = -3.47; inactive.
For zld (zelda) #2 the deposit lists Wolbachia per cell robust z, rep 1 = -0.805; Wolbachia per cell robust z, rep 2 = -3.37; Wolbachia per cell robust z, rep 3 = -1.12; inactive.
CG1632 #1 gave Wolbachia per cell robust z, rep 1 = 1.2; Wolbachia per cell robust z, rep 2 = -0.193; Wolbachia per cell robust z, rep 3 = 0.0886; inactive.
Silencing of CG1632 #2 resulted in: Wolbachia per cell robust z, rep 1 = 0.811; Wolbachia per cell robust z, rep 2 = 1.1; Wolbachia per cell robust z, rep 3 = -2.04; inactive.
CG9624 showed Wolbachia per cell robust z, rep 1 = -1; Wolbachia per cell robust z, rep 2 = -0.721; Wolbachia per cell robust z, rep 3 = -0.459; inactive.
CG7907 #1 showed Wolbachia per cell robust z, rep 1 = 0.293; Wolbachia per cell robust z, rep 2 = 0.0593; Wolbachia per cell robust z, rep 3 = 0.499; inactive.
After knock-down of CG7907 #2 the results were Wolbachia per cell robust z, rep 1 = 0.65; Wolbachia per cell robust z, rep 2 = 0.969; Wolbachia per cell robust z, rep 3 = -1.01; inactive.
Hel25E (Helicase at 25E) #1 showed Wolbachia per cell robust z, rep 1 = -0.892; Wolbachia per cell robust z, rep 2 = -0.727; Wolbachia per cell robust z, rep 3 = 0.717; inactive.
For Hel25E (Helicase at 25E) #2, the entry reads Wolbachia per cell robust z, rep 1 = -0.302; Wolbachia per cell robust z, rep 2 = -0.075; Wolbachia per cell robust z, rep 3 = -0.22; inactive.
Against CG6839, the values are Wolbachia per cell robust z, rep 1 = 0.73; Wolbachia per cell robust z, rep 2 = 0.193; Wolbachia per cell robust z, rep 3 = 0.535; inactive.
After knock-down of CG13193 the results were Wolbachia per cell robust z, rep 1 = -1.51; Wolbachia per cell robust z, rep 2 = 0.545; Wolbachia per cell robust z, rep 3 = -0.351; inactive.
GNBP2 (Gram-negative bacteria binding protein 2) scored Wolbachia per cell robust z, rep 1 = -1.98; Wolbachia per cell robust z, rep 2 = -0.976; Wolbachia per cell robust z, rep 3 = 0.0128; inactive.
For l(1)G0320 (lethal (1) G0320), the values are Wolbachia per cell robust z, rep 1 = 0.145; Wolbachia per cell robust z, rep 2 = -3.46; Wolbachia per cell robust z, rep 3 = -0.953; inactive.
Against spt4 #1 the deposit lists Wolbachia per cell robust z, rep 1 = -1.78; Wolbachia per cell robust z, rep 2 = -2.06; Wolbachia per cell robust z, rep 3 = -3.38; active.
With knock-down of spt4 #2 the results were Wolbachia per cell robust z, rep 1 = -1.1; Wolbachia per cell robust z, rep 2 = 0.587; Wolbachia per cell robust z, rep 3 = -0.628; inactive.
